Compound potency records, mixed from different reports. Data source: NIAID ChemDB in PubChem.

Common to all: growth or infection tests; agent: Enterococcus faecium; read-out: MIC

Rows are shuffled and stem from different studies.

structure,strain,result
CCNc1c(F)cc2c(=O)c(C(=O)O)cn(-c3cc(N)c(F)cc3F)c2c1C,W1418,64 µg/mL
CC(=O)NC[C@H]1CN(c2ccc(C(=O)Nc3nccs3)c(F)c2)C(=O)O1,UC12712 (vancomycin-resistant),4 µg/mL
Cc1c(NCCO)c(F)cc2c(=O)c(C(=O)O)cn(-c3cc(N)c(F)cc3F)c12,W1140,4 µg/mL
O=C(CCOc1ccc(Cl)cc1Cl)NC[C@H]1CN(c2ccc(N3CCOCC3)c(F)c2)C(=O)O1,UC12712 (vancomycin-resistant),8 µg/mL
CC(=O)NC[C@H]1CN(c2ccc(N(C)C=O)c(F)c2)C(=O)O1,UC12712 (vancomycin-resistant),4 µg/mL
Cc1c(NC(C)C)c(F)cc2c(=O)c(C(=O)O)cn(-c3cc(N)c(F)cc3F)c12,ATCC51519,16 µg/mL
CC(=O)NC[C@H]1CN(c2ccc(C(=O)Nc3cccnc3)c(F)c2)C(=O)O1,UC12712 (vancomycin-resistant),8 µg/mL
O=C(Cc1cccc(Br)c1)NC[C@H]1CN(c2ccc(N3CCOCC3)c(F)c2)C(=O)O1,UC12712 (vancomycin-resistant),16 µg/mL
CSCC(=O)NC[C@H]1CN(c2ccc(C(=O)Nc3ccc(Cl)nc3)c(F)c2)C(=O)O1,UC12712 (vancomycin-resistant),4 µg/mL
CC(=O)NC[C@H]1CN(c2ccc(Sc3ncc([N+](=O)[O-])s3)c(F)c2)C(=O)O1,UC12712 (vancomycin-resistant),2 µg/mL
CC(=O)NC[C@H]1CN(c2ccc(C(=O)N3CCOCC3)c(F)c2)C(=O)O1,UC12712 (vancomycin-resistant),>64 µg/mL
CC(=O)NC[C@H]1CN(c2ccc(SCc3ncon3)c(F)c2)C(=O)O1,UC12712 (vancomycin-resistant),8 µg/mL
CC(=O)NC[C@H]1CN(c2ccc(C(=O)NN)c(F)c2)C(=O)O1,UC12712 (vancomycin-resistant),8 µg/mL
O=C(Nc1ccc(C(F)(F)F)cc1)NN(CC(O)CN1CCOCC1)C(=O)Nc1ccc(C(F)(F)F)cc1,EF12 (vancomycin-resistant),75 µM
CC(=O)NC[C@H]1CN(c2ccc(N(C)S(C)(=O)=O)c(F)c2)C(=O)O1,UC12712 (vancomycin-resistant),8 µg/mL
CC(=O)NC[C@H]1CN(c2ccc(SCCC#N)c(F)c2)C(=O)O1,UC12712 (vancomycin-resistant),8 µg/mL
O=C(CCc1ccccc1)NC[C@H]1CN(c2ccc(N3CCOCC3)c(F)c2)C(=O)O1,UC12712 (vancomycin-resistant),16 µg/mL
COCC(=O)Nc1ccc(N2C[C@H](CNC(C)=O)OC2=O)cc1F,UC12712 (vancomycin-resistant),16 µg/mL
O=C(CC(=O)Nc1ccc(F)cc1)Nc1ccc(F)cc1,EF12 (vancomycin-resistant),>300 µM
CC(=O)NC[C@H]1CN(c2ccc(C(=O)Nc3nc4ccccc4s3)c(F)c2)C(=O)O1,UC12712 (vancomycin-resistant),8 µg/mL
O=C(/C=C/c1ccc(/C=N/O)cc1)NC[C@H]1CN(c2ccc(N3CCOCC3)c(F)c2)C(=O)O1,UC12712 (vancomycin-resistant),4 µg/mL
CSc1ccc(N2C[C@H](CNC(C)=O)OC2=O)cc1F,UC12712 (vancomycin-resistant),8 µg/mL
O=C(NNc1ccccn1)Nc1cc(C(F)(F)F)cc(C(F)(F)F)c1,EF12 (vancomycin-resistant),>300 µM
CC(=O)NC[C@H]1CN(c2ccc(NC(=O)c3ccc([N+](=O)[O-])o3)c(F)c2)C(=O)O1,UC12712 (vancomycin-resistant),0.5 µg/mL
O=C(NNC(=O)Nc1ccc(Cl)c(Cl)c1)Nc1ccc(Cl)c(Cl)c1,EF12 (vancomycin-resistant),9.8 µM
CC(=O)NC[C@H]1CN(c2ccc3c(c2)OCc2nccn2-3)C(=O)O1,27253,0.5 µg/mL
CC(=O)NC[C@H]1CN(c2ccc(NC(=O)c3ccc(/C=N/O)o3)c(F)c2)C(=O)O1,UC12712 (vancomycin-resistant),8 µg/mL
CC(=O)NC[C@H]1CN(c2ccc(SC3(C)CCOC3=O)c(F)c2)C(=O)O1,UC12712 (vancomycin-resistant),4 µg/mL
O=C(Nc1cccc(C2=NCCN2)c1)Nc1cccc(C2=NCCN2)c1,EF12 (vancomycin-resistant),300 µM
CO/N=C/c1ccc(/C=C/C(=O)NC[C@H]2CN(c3ccc(N4CCOCC4)c(F)c3)C(=O)O2)cc1,UC12712 (vancomycin-resistant),8 µg/mL
O=C(CC(=O)Nc1cccc(C(F)(F)F)c1)Nc1cccc(C(F)(F)F)c1,EF12 (vancomycin-resistant),>300 µM
CC(=O)NC[C@H]1CN(c2ccc(NC(=O)c3cc4ccccc4o3)c(F)c2)C(=O)O1,UC12712 (vancomycin-resistant),16 µg/mL

Repeating the final 4 entries:

structure,strain,result
O=C(Nc1cccc(C2=NCCN2)c1)Nc1cccc(C2=NCCN2)c1,EF12 (vancomycin-resistant),300 µM
CO/N=C/c1ccc(/C=C/C(=O)NC[C@H]2CN(c3ccc(N4CCOCC4)c(F)c3)C(=O)O2)cc1,UC12712 (vancomycin-resistant),8 µg/mL
O=C(CC(=O)Nc1cccc(C(F)(F)F)c1)Nc1cccc(C(F)(F)F)c1,EF12 (vancomycin-resistant),>300 µM
CC(=O)NC[C@H]1CN(c2ccc(NC(=O)c3cc4ccccc4o3)c(F)c2)C(=O)O1,UC12712 (vancomycin-resistant),16 µg/mL